Reference: patent US11608328B2, “Chemical probes to identify anti-mycobacterial MmpL3 inhibitors” (Creighton University, priority 2019, dated 2023)
Values after ≈ are worked out from the molar mass of the structure shown. Read-outs that look alike come from different tables or passages of the source. Marks after values point to notes of the source that are not given here.

By UniProt entry, the sequences of proteins in these tests, tags left out.
UniProt P9WJV5, whole entry: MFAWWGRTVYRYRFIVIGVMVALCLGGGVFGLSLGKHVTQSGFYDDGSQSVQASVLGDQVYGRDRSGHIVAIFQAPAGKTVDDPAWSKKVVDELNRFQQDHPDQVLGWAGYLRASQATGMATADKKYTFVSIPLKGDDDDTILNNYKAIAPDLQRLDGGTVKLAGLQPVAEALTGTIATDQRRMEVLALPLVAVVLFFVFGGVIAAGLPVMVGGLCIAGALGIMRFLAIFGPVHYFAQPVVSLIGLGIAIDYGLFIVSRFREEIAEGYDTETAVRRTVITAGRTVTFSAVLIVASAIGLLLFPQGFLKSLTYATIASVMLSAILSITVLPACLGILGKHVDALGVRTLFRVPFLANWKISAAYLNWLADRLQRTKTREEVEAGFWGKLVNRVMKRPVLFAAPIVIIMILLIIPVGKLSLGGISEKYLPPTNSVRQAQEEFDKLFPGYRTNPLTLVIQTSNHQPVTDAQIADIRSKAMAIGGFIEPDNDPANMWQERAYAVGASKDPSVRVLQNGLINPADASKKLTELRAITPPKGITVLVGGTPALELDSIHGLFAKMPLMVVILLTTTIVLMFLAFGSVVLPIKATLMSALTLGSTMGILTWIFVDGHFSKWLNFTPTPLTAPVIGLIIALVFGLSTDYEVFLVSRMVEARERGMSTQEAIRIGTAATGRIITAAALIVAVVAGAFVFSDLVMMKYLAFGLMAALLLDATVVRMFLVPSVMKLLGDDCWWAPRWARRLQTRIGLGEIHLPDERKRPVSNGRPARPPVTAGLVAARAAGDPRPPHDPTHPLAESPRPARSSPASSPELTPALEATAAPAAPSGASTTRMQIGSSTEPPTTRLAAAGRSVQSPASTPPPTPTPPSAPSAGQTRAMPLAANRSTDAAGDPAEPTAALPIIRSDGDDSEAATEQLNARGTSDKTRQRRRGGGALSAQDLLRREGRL

Key:
[1] = tested on: MsmgΔmmpL3 expressing mmpL3tb F644C; assay: Drug-susceptibility testing (MIC, resazurin blue test); assay type: cell-based, Mycobacterium smegmatis; settings: Tables 1A-1B, superscript a = 8-fold or more increase over WT, b = 4-fold
[2] = tested on: MsmgΔmmpL3 expressing mmpL3tb G253E; assay: as above; assay type: cell-based, Mycobacterium smegmatis
[3] = tested on: MsmgΔmmpL3 expressing mmpL3tb L189R; assay: as above; assay type: cell-based, Mycobacterium smegmatis
[4] = tested on: MsmgΔmmpL3 expressing mmpL3tb L567P; assay: as above; assay type: cell-based, Mycobacterium smegmatis; settings: Tables 1A-1B, superscript a = 8-fold or more increase over WT, b = 4-fold
[5] = tested on: MsmgΔmmpL3 expressing mmpL3tb Q372R; assay: as above; assay type: cell-based, Mycobacterium smegmatis; settings: Tables 1A-1B, superscript a = 8-fold or more increase over WT, b = 4-fold
[6] = tested on: MsmgΔmmpL3 expressing mmpL3tb S288T; assay: as above; assay type: cell-based, Mycobacterium smegmatis; settings: Tables 1A-1B, superscript a = 8-fold or more increase over WT, b = 4-fold
[7] = tested on: MsmgΔmmpL3 expressing mmpL3tb S309C; assay: as above; assay type: cell-based, Mycobacterium smegmatis; settings: Tables 1A-1B; mutant S309C; superscript a = 8-fold or more increase over WT, b = 4-fold
[8] = tested on: MsmgΔmmpL3 expressing mmpL3tb S591I; assay: as above; assay type: cell-based, Mycobacterium smegmatis
[9] = tested on: MsmgΔmmpL3 expressing mmpL3tb T311I; assay: as above; assay type: cell-based, Mycobacterium smegmatis; settings: Tables 1A-1B, superscript a = 8-fold or more increase over WT, b = 4-fold
[10] = tested on: MsmgΔmmpL3 expressing mmpL3tb V684A; assay: as above; assay type: cell-based, Mycobacterium smegmatis
[11] = tested on: MsmgΔmmpL3 expressing mmpL3tb V684G; assay: as above; assay type: cell-based, Mycobacterium smegmatis
[12] = tested on: MsmgΔmmpL3 expressing mmpL3tb F644C/I/L; assay: as above; settings: Table 2; mutant F644C/I/L
[13] = tested on: MsmgΔmmpL3 expressing mmpL3tb F644Y; assay: as above; settings: Table 2; mutant F644Y
[14] = tested on: MsmgΔmmpL3 expressing mmpL3tb G253R; assay: as above; settings: Table 2; mutant G253R
[15] = tested on: MsmgΔmmpL3 expressing mmpL3tb G253W; assay: as above; settings: Table 2; mutant G253W
[16] = tested on: MsmgΔmmpL3 expressing mmpL3tb S591G; assay: as above; settings: Table 2; mutant S591G
[17] = tested on: MsmgΔmmpL3 expressing mmpL3tb S591W; assay: as above; settings: Table 2; mutant S591W
[18] = tested on: MsmgΔmmpL3 expressing mmpL3tb V684I; assay: as above; settings: Table 2; mutant V684I
[19] = tested on: MsmgΔmmpL3 expressing mmpL3tb V684W; assay: as above; settings: Table 2; mutant V684W
Mtb = assay: MIC values against Mtb used for the PMF assays; assay type: cell-based, Mycobacterium tuberculosis; settings: FIG. 8 legend
purified MmpL3tb protein = purified MmpL3tb protein (Mycobacterium tuberculosis, UniProt P9WJV5); assay: Surface Plasmon Resonance binding to immobilized MmpL3tb
purified MmpL3-GFP = purified MmpL3-GFP (Mycobacterium tuberculosis, UniProt P9WJV5); assay: Flow cytometry-based competition binding assay on purified MmpL3-GFP (displacement of Compound 2); settings: 2 μM Compound 2 with increasing inhibitor concentrations
[20] = tested on: transfer of mycolic acids onto their cell envelope acceptors in Mtb H37Rv; assay: Metabolic labeling with [1,2-14C]acetate, lipid and mycolic acid analysis in Mtb; settings: 24 hours, 0.5× and 2×MIC
[21] = tested on: MsmgΔmmpL3 expressing wild-type mmpL3tb; settings: MmpL3 WT
[22] = tested on: MsmgΔmmpL3 expressing mmpL3tb LI89A; settings: Table 2; mutant LI89A
MmpL3tb (MmpL3^WT) = MmpL3tb (MmpL3^WT) (Mycobacterium tuberculosis, UniProt P9WJV5); settings: 50, 100 and 200 μM
[23] = tested on: transfer of mycolic acids onto their cell envelope acceptors in MsmgΔmmpL3/pMVGH1-mmpL3tb; settings: 3 hours
[24] = Tables 1A-1B, […], superscript a = 8-fold or more increase over WT, b = 4-fold
[25] = Table 2, mutant V684G (parent mutant)

CC1(C)CCC(NC(=O)c2cc3c(F)cc(F)cc3[nH]2)CC1
MIC [1]: 0.03 µg/mL (≈ 0.0979 µM) | MIC ([2]; Table 2, mutant G253E (parent mutant)): 0.5 µg/mL (≈ 1.63 µM) | MIC [2, 24]: 0.4^a μg/mL | MIC ([3]; Table 2, mutant L189R (parent mutant)): 0.5 µg/mL (≈ 1.63 µM) | MIC [3, 24]: 0.25^b μg/mL | MIC [4]: 1^a μg/mL | MIC [5]: 0.5^a μg/mL | MIC [6]: 0.64^a μg/mL | MIC [7]: 0.5^a μg/mL | MIC ([8]; Table 2, mutant S591I (parent mutant)): 0.12-0.25^ μg/mL | MIC [8, 24]: 0.5^a μg/mL | MIC [9]: 0.125 µg/mL (≈ 0.408 µM) | MIC ([10]; Table 2, mutant V684A (parent mutant)): 0.25 µg/mL (≈ 0.816 µM) | MIC [10, 24]: 0.5^a μg/mL | MIC [11, 25]: 0.12-0.25^ μg/mL | MIC [11, 24]: 0.25^b μg/mL | MIC [12]: 0.03-0.06^ μg/mL | MIC [13]: 0.03 µg/mL (≈ 0.0979 µM) | MIC [14]: 0.12-0.25^c μg/mL | MIC [15]: 0.5 µg/mL (≈ 1.63 µM) | MIC [16]: 0.06-0.12^c μg/mL | MIC [17]: 0.06-0.12^c μg/mL | MIC [18]: 0.06^c μg/mL | MIC [19]: 0.5 µg/mL (≈ 1.63 µM) | MIC values (Mtb): 0.05 µM (≈ 0.0153 µg/mL) | ka2 (purified MmpL3tb protein; SPR global fit): 0.005 1/RU*s | kd1 (purified MmpL3tb protein; SPR global fit): 0.06 s⁻¹ | kd2 (purified MmpL3tb protein; SPR global fit): 0.0002 s⁻¹ | ka1 (purified MmpL3tb protein; SPR global fit, HEPES-TX buffer with 5% DMSO): 426.1 M⁻¹ s⁻¹ | Model (best-fit kinetic model) (purified MmpL3tb protein; SPR sensorgrams fit globally): Two-state reaction | Kd (purified MmpL3tb protein; read-out: KD1, equilibrium dissociation constant calculated from the rate constants): 5.4 µM | displacement of Compound 2 from purified MmpL3tb (purified MmpL3-GFP): clear concentration-dependent displacement | inhibition of transfer of mycolic acids to cell envelope acceptors [20]: displayed the same expected property of MmpL3 inhibitors | MIC ([21]; Table 2): 0.06 µg/mL (≈ 0.196 µM) | MIC ([21]; Tables 1A-1B): 0.06 µg/mL (≈ 0.196 µM) | MIC [22]: 0.12^c μg/mL | BLI binding signal (MmpL3tb (MmpL3^WT)): No signal was detected | inhibition of transfer of mycolic acids to cell envelope acceptors [23]: actually targeted MmpL3tb in the Msmg recombinant system

Cc1c(CN2CCN(C)CC2)cc(-c2ccc(Cl)cc2)n1-c1ccc(Cl)cc1 [BM212]
MIC [11, 25]: 4 µg/mL (≈ 9.65 µM) | MIC [11, 24]: 12.5 µg/mL (≈ 30.2 µM)
